Measured values from several laboratories, pooled; numbers as filed in NIAID ChemDB.

Shared fields: tests in culture; agent: Influenza A virus; read by: plaque count; measure: EC50

An empty or dashed field is not shown. Two numbers with a dash give a range or band. ECn: concentration that inhibits the pathogen or its effect by n%. Rows are shuffled and stem from different studies.

structure,cells,strain or isolate,value
CC(=O)N[C@H]1[C@H]([C@H](O)[C@H](O)CO)OC(C(=O)O)=C[C@@H]1O,MDCK,B/Victoria/102/85,10 µM
C[C@@H]1CCC[C@@H]2C[C@@H](NC(=O)c3cc(C(=O)c4ccccc4)ccc3O)CCN21,MDBK,H1N1 A/WSN/33,>20 µg/mL
NC(=O)c1ncn([C@@H]2O[C@H](CO)[C@@H](O)[C@H]2O)n1,MDCK,Influenza A/Ishikawa/7/82 (H3N2),8.4 µg/mL
CC(N)C12CC3CC(CC(C3)C1)C2,MDCK,A/Brazil/11/78 (H1N1),0.6 µM
O=C(O[C@@H]1Cc2c(O)cc(O)cc2O[C@@H]1c1cc(O)c(=O)c2c(O)c(O)cc([C@H]3Oc4cc(O)cc(O)c4C[C@H]3OC(=O)c3cc(O)c(O)c(O)c3)c2c1)c1cc(O)c(O)c(O)c1,MDCK,H1N1 A/Yamagata/120/86,50 µM
CC(=O)N[C@@H]1[C@@H](N=C(N)N)C=C(C(=O)O)O[C@H]1C(F)(F)[C@H](O)CO,,A/Yamagata/32/89,0.01 µg/mL
NC(=O)c1ncn([C@@H]2O[C@H](CO)[C@@H](O)[C@H]2O)n1,MDCK,H3N2 HONG KONG/1/68,2.9 µg/mL
CCCCCCCC(=O)N[C@@H]([C@@H]1OC(C(=O)O)=C[C@H](N=C(N)N)[C@H]1NC(C)=O)[C@H](O)CO,,A/Yamagata/32/89,0.08 µg/mL
C[C@@H]1CCC[C@@H]2C[C@@H](NC(=O)c3c(O)cccc3F)CCN21,MDBK,H1N1 A/WSN/33,10 µg/mL
C1C2C3CC4C1C1C2NC3C41,MDCK,Influenza A/Victoria/3/75 (H3N2),>25 µg/mL
O[C@H]1[C@H](O)[C@@H](O)CN2CC[C@H](O)[C@H]12,MDCK,A/HONG KONG/11/88,15 µM
CCC(CC)O[C@@H]1C=C(C(=O)O)C[C@H](N)[C@H]1NC(C)=O,MDCK,A/Victoria/3/75,0.03 µM
CC#Cc1cn([C@@H]2O[C@H](COP(=O)(O)Oc3ccccc3)[C@@H](O)[C@@H]2O)c(=O)[nH]c1=O,MDCK,H1N1 A/Sweden/3/50,>100 µM
COc1cc(OC)n2sc(=NC(=O)COc3ccc(Cl)cc3Cl)nc2n1,MDCK,H1N1,>20 µM
CC#Cc1cn([C@@H]2O[C@H](COP(=O)(O)Oc3cccc(Cl)c3)[C@@H](O)[C@@H]2O)c(=O)[nH]c1=O,MDCK,H1N1 A/Sweden/3/50,10 µM
CC(=O)N[C@H]1[C@H]([C@H](O)[C@H](O)CO)OC(C(=O)O)=C[C@@H]1N=C(N)N,MDCK,A/Stockholm/24/90,16 µM
CC#Cc1cn([C@@H]2O[C@H](COP(=O)(O)Oc3c(C)cccc3C)[C@@H](O)[C@@H]2O)c(=O)[nH]c1=O,MDCK,H1N1 A/Sweden/3/50,>10 µM
CC(=O)N[C@H]1[C@H]([C@H](O)[C@H](O)CO)OC(C(=O)O)=C[C@@H]1N,MDCK,H1N1 A/FM/1/47,2.4 µM
CC#Cc1cn([C@@H]2O[C@H](COP(=O)(O)OCC(F)(F)F)[C@@H](O)[C@@H]2O)c(=O)[nH]c1=O,MDCK,H1N1 A/Sweden/3/50,>100 µM
C[C@@H]1CCC[C@@H]2C[C@@H](NC(=O)c3cc4ccccc4cc3O)CCN21,MDBK,H1N1 A/WSN/33,>20 µg/mL
CC1(C)C[C@H](O)C[C@](C)(CNC(=O)c2cc(Cl)ccc2O)C1,,H-1,0.03 µg/mL
C#Cc1c(C(N)=O)ncn1[C@@H]1O[C@H](CO)[C@@H](O)[C@H]1O,MDCK,A/Ishikawa,2.5 µg/mL
C[C@@H]1CCC[C@@H]2C[C@@H](NC(=O)c3cc(I)ccc3O)CCN21,MDBK,H1N1 A/WSN/33,1 µg/mL
C#Cc1c(C(N)=O)ncn1[C@@H]1O[C@H](CO)[C@@H](O)[C@H]1O,MDCK,Influenza A/Ishikawa/7/82 (H3N2),2.3 µg/mL
CC#Cc1cn([C@@H]2O[C@H](COP(=O)(O)OCC)[C@@H](O)[C@@H]2O)c(=O)[nH]c1=O,MDCK,H1N1 A/Sweden/3/50,>100 µM
C[C@@H]1CCC[C@@H]2C[C@@H](NC(=O)c3cc(Cl)c(N)cc3O)CCN21,MDBK,H1N1 A/WSN/33,1–3 µg/mL
NC(=O)c1nc(F)c[nH]c1=O,MDCK,H1N1 A/PR/8/34,1 µM
CC#Cc1cn([C@@H]2O[C@H](COP(=O)(O)Oc3ccc(Cl)cc3)[C@@H](O)[C@@H]2O)c(=O)[nH]c1=O,MDCK,H1N1 A/Sweden/3/50,100 µM
CC(=O)N[C@H]1[C@H]([C@H](O)[C@H](O)CO)OC(C(=O)O)=C[C@@H]1N,MDCK,B/Victoria/102/85,0.065 µM
NC(=O)c1nc(F)c[nH]c1=O,MDCK,H1N1 SUITA/1/89,0.029 µg/mL
CCO[C@@H]([C@@H]1OC(C(=O)O)=C[C@H](N=C(N)N)[C@H]1NC(C)=O)[C@H](O)CO,MDCK,A/Yamagata/32/89,0.007 µg/mL
NC12CC3CC(CC(C3)C1)C2,MDCK,,0.08 µg/mL
CC#Cc1cn([C@@H]2O[C@H](CO)[C@@H](O)[C@@H]2O)c(=O)[nH]c1=O,MDCK,H1N1 A/Sweden/3/50,>100 µM